Compound potency records, mixed from different reports. Data source: NIAID ChemDB in PubChem.

All rows: growth or infection tests; agent: HIV-1; measure: EC50

ECn is the concentration giving n% inhibition of infection, replication or growth. An empty or dashed field is not shown. Conditions beyond the fields shown may differ between rows.

compound,changes,read by,cell line,strain,result
COCc1nc(Nc2ccc(C#N)cc2)nc(Nc2c(C)cc(/C=C/C#N)cc2C)c1C(=O)NCCC#N,-,-,MT4 CMV-EGFP,K103N + Y181C,0.0145 µM
CC(C)C1=C2[C@H]3CC[C@@H]4[C@@]5(C)CC[C@H](OC(=O)[C@H]6C[C@@H](C(=O)O)C6(C)C)C(C)(C)[C@@H]5CC[C@@]4(C)[C@]3(C)CC[C@@]2(CC(=O)NCc2ccc(Cl)c(Cl)c2)CC1=O,-,p24 / ELISA,MT-2,92HT599,<1 µM
COc1ccc(N(C)C(=O)[C@H](Cc2ccccc2)NC(=O)Cn2c(=O)c3ccccc3n(CC(=O)N[C@@H](Cc3ccccc3)C(=O)N(C)c3ccc(OC)cc3)c2=O)cc1,-,luciferase,MT-2,NL4-3,0.07 µM
COCc1nc(Nc2ccc(C#N)cc2)nc(Oc2c(C)cc(/C=C/C#N)cc2C)c1C(=O)NCc1ccncc1,-,-,MT4 CMV-EGFP,K103N + Y181C,0.0631 µM
CC(C)[C@H](NC(=O)[C@H](NCc1ccc(Cl)cc1)[C@H](O)[C@H](Cc1ccccc1)NC(=O)[C@@H](NC(=O)OCc1ccccc1)C(C)(C)C)C(=O)NCc1nc2ccccc2[nH]1,-,MTT / p24,U-937,IIIB,0.016 µM
CC(C)C1=C2[C@H]3CC[C@@H]4[C@@]5(C)CC[C@H](OC(=O)[C@H]6C[C@@H](C(=O)O)C6(C)C)C(C)(C)[C@@H]5CC[C@@]4(C)[C@]3(C)CC[C@@]2([C@@H](O)CNCC(F)(CCN)NC(=O)c2ccc(Cl)cc2)CC1=O,-,p24 / ELISA,MT-2,92HT599,<1 µM
C#CCN(C(=O)[C@H](Cc1ccccc1)NS(=O)(=O)NC(=O)N[C@@H](Cc1ccccc1)C(=O)N(CCC=C)c1ccc(OC)nc1)c1ccc(OC)nc1,-,luciferase,MT-2,NL4-3,1.5 µM
COc1ccc(Cn2ccc3c(-c4ccc5c(c4)CCCO5)c(C(OC(C)(C)C)C(=O)O)n(C)c(=O)c32)cc1,-,MTS,MT-4,IIIB,0.1 µM
CC(C)C1=C2[C@H]3CC[C@@H]4[C@@]5(C)CC[C@H](OC(=O)[C@H]6C[C@@H](C(=O)O)C6(C)C)C(C)(C)[C@@H]5CC[C@@]4(C)[C@]3(C)CC[C@@]2(CC(=O)NC2(CNC(=O)c3ccc(Cl)cc3)CC2)CC1=O,-,p24 / ELISA,MT-2,92HT599,<1 µM
C[C@@H]1CCO[C@H]2Cn3cc(C(=O)NCc4ccc(F)cc4F)c(=O)c(O)c3C(=O)N12,H51Y/R263K,RT activity,CBMC,NL4-3,0.0023 µM
COCc1nc(Nc2ccc(C#N)cc2)nc(Nc2c(C)cc(/C=C/C#N)cc2C)c1C(=O)N(C)CCN(C)C,-,-,MT4 CMV-EGFP,L1001+K103N,0.49 µM
CN(C(=O)[C@H](Cc1cc(F)cc(F)c1)NC(=O)NS(=O)(=O)N[C@@H](Cc1cc(F)cc(F)c1)C(=O)N(C)c1ccc(OC(F)F)nc1)c1ccc(OC(F)F)nc1,-,luciferase,MT-2,NL4-3,0.01 µM
CC(C)[C@H](NC(=O)OCc1ccccc1)C(=O)N[C@@H](Cc1ccccc1)[C@@H](O)[C@@H](NCc1ccccc1)C(=O)N[C@H](C(=O)NCc1nc2ccccc2[nH]1)C(C)C,-,MTT / p24,HuT-78 + HUT 78,IIIB,0.0647 µM
CC(C)C1=C2[C@H]3CC[C@@H]4[C@@]5(C)CC[C@H](OC(=O)[C@H]6C[C@@H](C(=O)O)C6(C)C)C(C)(C)[C@@H]5CC[C@@]4(C)[C@]3(C)CC[C@@]2(CC(=O)NCc2ccc(Cl)cc2OCCN(C)C)CC1=O,-,p24 / ELISA,MT-2,92HT599,<1 µM
COCc1nc(Nc2ccc(C#N)cc2)nc(Oc2c(C)cc(/C=C(\C)C#N)cc2C)c1C(=O)NCc1ccncc1,-,-,MT4 CMV-EGFP,IIIB,0.00417 µM
C/C(=C\CC/C(C)=C/C(=O)O)C/C=C/[C@@]1(C)CCC(C(C)(C)O)O1,-,cytopathic effect / syncytia,C8166,IIIB,1.03 µM
COCc1nc(Nc2ccc(C#N)cc2)nc(Nc2c(C)cc(/C=C/C#N)cc2C)c1C(=O)NCCc1ccc(S(N)(=O)=O)cc1,-,-,MT4 CMV-EGFP,L1001+K103N,0.0977 µM
COc1ccc(N(C)C(=O)C(Cc2cc(F)cc(F)c2)NC(=O)c2cccc(C(=O)N[C@@H](Cc3cc(F)cc(F)c3)C(=O)N(C)c3ccc(OC)cc3)c2)cc1,-,luciferase,MT-2,NL4-3,0.04 µM
Cc1cn([C@H]2C[C@H](N=[N+]=[N-])[C@@H](CO)O2)c(=O)[nH]c1=O,-,cytopathic effect / syncytia,C8166,IIIB,0.01889 µM
CN(C(=O)[C@H](Cc1cc(F)cc(F)c1)NC(=O)c1cccc(S(=O)(=O)N[C@@H](Cc2cc(F)cc(F)c2)C(=O)N(C)c2ccc3scnc3c2)c1)c1ccc2scnc2c1,-,luciferase,MT-2,NL4-3,0.3 µM
CC(C)[C@H](NC(=O)OCc1ccccc1)C(=O)N[C@@H](Cc1ccccc1)[C@@H](O)[C@@H](NCc1ccc(Br)cc1)C(=O)N[C@H](C(=O)NCc1nc2ccccc2[nH]1)C(C)C,-,MTT / p24,U-937,IIIB,0.0497 µM
CNC(=O)c1nc([C@]2(C)CSC([C@]3(C)CSC([C@]4(C)CSC(/C=C/c5ccccc5)=N4)=N3)=N2)oc1C,-,cytopathic effect / thymidine uptake,MT-4,IIIB,<0.000047 µM
COc1ccc(N(C)C(=O)[C@H](Cc2cc(F)cc(F)c2)NC(=O)Cn2c(=O)c3ccccc3c(=O)n2CC(=O)N[C@@H](Cc2cc(F)cc(F)c2)C(=O)N(C)c2ccc(OC)cc2)cc1,-,luciferase,MT-2,NL4-3,0.09 µM
Cn1cc(C(=O)O)c(=O)c2cc(F)c(N3CC=C(c4ccccc4)CC3)c(C(F)(F)F)c21,-,ELISA,PBMC,-,0.095 µM
COc1ccc(N(C)C(=O)[C@H](Cc2ccccc2)NC(=O)Cn2c(=O)c(=O)n(CC(=O)N[C@@H](Cc3ccccc3)C(=O)N(C)c3ccc(OC)cc3)c3ccccc32)cc1,-,luciferase,MT-2,NL4-3,0.16 µM
CC(C)C1=C2[C@H]3CC[C@@H]4[C@@]5(C)CC[C@H](OC(=O)[C@H]6C[C@@H](C(=O)O)C6(C)C)C(C)(C)[C@@H]5CC[C@@]4(C)[C@]3(C)CC[C@@]2([C@@H](O)CN(CCN(C)C)C(=O)c2cc(C(C)C)[nH]n2)CC1=O,-,p24 / ELISA,MT-2,92HT599,<1 µM
CN(C(=O)[C@H](Cc1ccccc1)NC(=O)NS(=O)(=O)N[C@@H](Cc1ccccc1)C(=O)N(C)c1ccc(C(C)(C)C)cc1)c1ccc(C(C)(C)C)cc1,-,luciferase,MT-2,NL4-3,0.27 µM
CC(C)[C@H](NC(=O)OCc1ccccc1)C(=O)N[C@@H](Cc1ccccc1)[C@@H](O)[C@@H](NCc1ccccc1)C(=O)N[C@H](C(=O)NCc1ccccc1)C(C)C,-,MTT / p24,HuT-78 + HUT 78,IIIB,0.173 µM
COCc1nc(Nc2ccc(C#N)cc2)nc(Nc2c(C)cc(/C=C(\C)C#N)cc2C)c1C(=O)NCc1ccncc1,-,-,MT4 CMV-EGFP,MDR,0.155 µM
C=C1C(=O)O[C@@H](CCCCCCCCCCCCCC(C)=O)[C@H]1C(=O)O,-,cytopathic effect / syncytia,C8166,IIIB,0.23 µM
COCc1nc(Nc2ccc(C#N)cc2)nc(Nc2c(C)cc(/C=C/C#N)cc2C)c1C(=O)N1CCN(CCO)CC1,-,-,MT4 CMV-EGFP,MDR,6.46 µM
CC(C)C1=C2[C@H]3CC[C@@H]4[C@@]5(C)CC[C@H](OC(=O)[C@H]6C[C@@H](C(=O)O)C6(C)C)C(C)(C)[C@@H]5CC[C@@]4(C)[C@]3(C)CC[C@@]2([C@@H](O)CNC(=O)C(C)(C)NC(=O)CN2CCS(=O)(=O)CC2)CC1=O,-,p24 / ELISA,MT-2,92HT599,<1 µM
COc1ccc(N(C)C(=O)[C@H](Cc2ccccc2)NC(=O)c2cncc(C(=O)N[C@@H](Cc3ccccc3)C(=O)N(C)c3ccc(OC)cc3)n2)cc1,-,luciferase,MT-2,NL4-3,0.96 µM

For reference, 5 entries again:

| compound | changes | read by | cell line | strain | result |
|---|---|---|---|---|---|
| CNC(=O)c1nc([C@]2(C)CSC([C@]3(C)CSC([C@]4(C)CSC(/C=C/c5ccccc5)=N4)=N3)=N2)oc1C | - | cytopathic effect / thymidine uptake | MT-4 | IIIB | <0.000047 µM |
| CN(C(=O)[C@H](Cc1ccccc1)NC(=O)NS(=O)(=O)N[C@@H](Cc1ccccc1)C(=O)N(C)c1ccc(C(C)(C)C)cc1)c1ccc(C(C)(C)C)cc1 | - | luciferase | MT-2 | NL4-3 | 0.27 µM |
| CC(C)[C@H](NC(=O)OCc1ccccc1)C(=O)N[C@@H](Cc1ccccc1)[C@@H](O)[C@@H](NCc1ccccc1)C(=O)N[C@H](C(=O)NCc1nc2ccccc2[nH]1)C(C)C | - | MTT / p24 | HuT-78 + HUT 78 | IIIB | 0.0647 µM |
| COCc1nc(Nc2ccc(C#N)cc2)nc(Nc2c(C)cc(/C=C/C#N)cc2C)c1C(=O)NCCc1ccc(S(N)(=O)=O)cc1 | - | - | MT4 CMV-EGFP | L1001+K103N | 0.0977 µM |
| COCc1nc(Nc2ccc(C#N)cc2)nc(Nc2c(C)cc(/C=C/C#N)cc2C)c1C(=O)N(C)CCN(C)C | - | - | MT4 CMV-EGFP | L1001+K103N | 0.49 µM |